The target of assay [1] is A3 tumour-associated antigen on Colo205 cells (identified in Example 5 as α6β4 integrin) (human) (UniProt P23229).
For assay [2], the target named is A3 tumour-associated antigen on Colo205 cells (identified in Example 5 as α6β4 integrin), human, P23229 24-1083; P16144 52-1822.

Values joined by “and” are separate entries in the source; they are usually repeats but may differ in a detail not shown here. Equal values may be shown once.

We go through three substances from patent US20070112179A1.

For the substance “1F scFv-SEA(D227A) fusion protein (from UniProt P0A0L2 25-257)”, the million sites/cell with 1F TAA on Colo205 cells was 180000 sites/cell.

By Kd is commonly meant the concentration at which binding is half-saturated. On to “A3 Fab-SEA(D227A) fusion protein (from UniProt P0A0L2 25-257)”, for which the Kd in assay [1] is 580 nM and 780 nM.

With A3 scFv-SEA(D227A) fusion protein, the Kd in assay [2] lay in the range of 3.6 to 5.5 nM.
